Experimental data as given in ChEMBL document CHEMBL5512668, “Macrocyclic Azapeptide Nitriles: Structure-Based Discovery of Potent SARS-CoV-2 Main Protease Inhibitors as Antiviral Drugs” (J Med Chem, 2024).

Key:
[1] = target: Replicase polyprotein 1ab (Severe acute respiratory syndrome coronavirus 2) (UniProt P0DTD1); conditions: time 65.0 min
[2] = target: Replicase polyprotein 1ab (Severe acute respiratory syndrome coronavirus 2) (UniProt P0DTD1); conditions: dose 1.0 µM, time 65.0 min

Structure (SMILES) | K [1] [M⁻¹ s⁻¹] | inhibition [2] [%]
CN(C(=O)[C@H](Cc1ccccc1)NC(=O)OCc1ccccc1)N(C#N)Cc1cccc(Br)c1 | 43600 | 100
COc1cccc(OCC(=O)N[C@@H](Cc2ccccc2)C(=O)N(C)N(C#N)Cc2ccc(Cl)cc2)c1 | 4290 | 50
CN(C(=O)[C@H](Cc1ccccc1)NC(=O)OCc1ccccc1)N(C#N)Cc1ccco1 | 14300 | 96
CN(C(=O)[C@H](Cc1ccccc1)NC(=O)OCc1ccccc1)N(C#N)Cc1ccc(Br)c(F)c1 | 14000 | 100
COc1cccc(CN(C#N)N(C)C(=O)[C@H](Cc2ccccc2)NC(=O)OCc2ccccc2)c1F | 23400 | 100
CN(C(=O)[C@H](Cc1ccccc1)NC(=O)OCc1ccccc1)N(C#N)Cc1c(F)cc(Br)cc1F | 21800 | 100
COc1ccc(OC)c(CN(C#N)N(C)C(=O)[C@H](Cc2ccccc2)NC(=O)OCc2ccccc2)c1 | 4870 | 54
CN(C(=O)[C@H](Cc1ccccc1)NC(=O)OCc1ccccc1)N(C#N)Cc1ccccc1Cl | 22200 | 100
CN(C(=O)[C@H](Cc1ccccc1)NC(=O)CNc1ccc(F)cc1F)N(C#N)Cc1ccc(Cl)cc1 | 4890 | 59
CN(C(=O)[C@H](Cc1ccccc1)NC(=O)COc1cccc(F)c1Br)N(C#N)Cc1ccc(Cl)cc1 | 3320 | 39
CCCS(=O)(=O)N[C@H](C(=O)N[C@@H](Cc1ccccc1)C(=O)N(C)N(C#N)Cc1ccc(Cl)cc1)C(C)(C)C | 29200 | 99
CN1C(=O)[C@H](Cc2ccccc2)N(C(=O)[C@@H](NC(=O)c2cccs2)C(C)(C)C)CCCOc2ccc(Cl)c(F)c2CN1C#N |  | 7
CN1C(=O)[C@H](CCc2ccccc2)NC(=O)COCCOCCOc2ccc(F)cc2CN1C#N |  | 14
CN(C(=O)[C@H](Cc1ccccc1)NC(=O)OCc1ccccc1)N(C#N)Cc1ccc(F)cc1 | 9320 | 100
CN(C(=O)[C@H](Cc1ccccc1)NC(=O)C1(NC(=O)c2cccs2)CC1)N(C#N)Cc1ccc(Cl)cc1 | 6040 | 72
CN(C(=O)[C@H](Cc1ccccc1)NC(=O)OCc1ccccc1)N(C#N)Cc1ccc(Br)c(Cl)c1F | 22400 | 100
COc1ccc(OCC(=O)N[C@@H](Cc2ccccc2)C(=O)N(C)N(C#N)Cc2ccc(Cl)cc2)cc1 | 2760 | 50
CN(C(=O)[C@H](Cc1ccccc1)NC(=O)[C@@H](NC(=O)c1ccc(-c2cccs2)s1)C(C)(C)C)N(C#N)Cc1ccc(Cl)cc1 | 8150 | 58
CN(C(=O)[C@H](Cc1ccccc1)NC(=O)OCc1ccccc1)N(C#N)Cc1ccccc1F | 25600 | 100
CN1C(=O)[C@H](CCc2ccccc2)NC(=O)COCCOc2ccc(F)cc2CN1C#N | 3180 | 33

Structure (SMILES) | K [1] [M⁻¹ s⁻¹] | inhibition [2] [%]
CN(C(=O)[C@H](Cc1ccccc1)NC(=O)OCc1ccccc1)N(C#N)Cc1cccc(F)c1 | 25900 | 100
COc1ccc(NCC(=O)N[C@@H](Cc2ccccc2)C(=O)N(C)N(C#N)Cc2ccc(Cl)cc2)c(Cl)c1 | 5450 | 74
CN(C(=O)[C@H](Cc1ccccc1)NC(=O)OCc1ccccc1)N(C#N)Cc1ccccc1Br | 13000 | 100
COc1ccc(Cl)c(F)c1CN(C#N)N(C)C(=O)[C@H](Cc1ccccc1)NC(=O)OCc1ccccc1 | 10300 | 84
CN(C(=O)[C@H](Cc1ccccc1)NC(=O)COc1ccc(F)cc1)N(C#N)Cc1ccc(Cl)cc1 | 4740 | 47
CN(C(=O)[C@H](Cc1ccccc1)NC(=O)OCc1ccccc1)N(C#N)Cc1ccc(Br)cc1F | 13700 | 100
CN1C(=O)[C@H](Cc2ccccc2)N(C(=O)COc2ccc(Cl)cc2Cl)CCCCOc2ccc(F)cc2CN1C#N |  | 100
COc1c(Cl)cccc1CN(C#N)N(C)C(=O)[C@H](Cc1ccccc1)NC(=O)OCc1ccccc1 | 10400 | 83
CN(C(=O)[C@H](Cc1ccccc1)NC(=O)OCc1ccccc1)N(C#N)Cc1ccc(Br)cc1Cl | 20000 | 100
CN(C(=O)[C@H](Cc1ccccc1)NC(=O)CNc1c(F)cccc1F)N(C#N)Cc1ccc(Cl)cc1 | 4670 | 71
CN(C(=O)[C@H](Cc1ccccc1)NC(=O)OCc1ccccc1)N(C#N)Cc1cc(Cl)ccc1F | 21800 | 100
CN(C(=O)[C@H](Cc1ccccc1)NC(=O)CNc1ccc(F)c(F)c1)N(C#N)Cc1ccc(Cl)cc1 | 10700 | 86
CN(C(=O)[C@H](Cc1ccccc1)NC(=O)OCc1ccccc1)N(C#N)Cc1ccsc1 | 10100 | 83
COc1ccc(CN(C#N)N(C)C(=O)[C@H](Cc2ccccc2)NC(=O)OCc2ccccc2)cc1 | 9740 | 81
CN(C(=O)[C@H](Cc1ccccc1)NC(=O)CCc1ccc(F)c(F)c1)N(C#N)Cc1ccc(Cl)cc1 | 4040 | 44
CN(C(=O)[C@H](Cc1ccccc1)NC(=O)OCc1ccccc1)N(C#N)Cc1ccc(Br)c(Cl)c1 | 15500 | 96
CN(C(=O)[C@H](Cc1ccccc1)NC(=O)COc1ccc(Cl)cc1Cl)N(C#N)Cc1ccc(Cl)cc1 | 3360 | 35
CN1C(=O)[C@H](Cc2ccccc2)N(C(=O)COc2ccc(Cl)cc2Cl)CCCCCOc2ccc(F)cc2CN1C#N |  | 100
CN(C(=O)[C@H](Cc1ccccc1)NC(=O)c1cc2cc(Cl)ccc2[nH]1)N(C#N)Cc1ccc(Cl)cc1 | 35900 | 100
